In patent US20030199438A1, “Method for identification of proteins from intracellular bacteria” (priority 2001, published 2003):

B1: DT8: novel 7.2 kDa C. trachomatis specific protein, SEQ ID NO:1, not annotated in genome (protein, listed as Chlamydia trachomatis)
chain: MQHTIMLSLENDNDKLASMMDRVVAASSSILSASKDSESNRQFTISKAPDKEAPCRVSYVAASALSE
B2: CT858: C. trachomatis 67 kDa protein, fragments DT4 (C-terminal) and DT48 (N-terminal) (protein)
chain: MKMNRIWLLLLTFSSAIHSPVQGESLVCKNALQDLSFLEHLLQVKYAPKTWKEQYLGWDLVQSSVSAQQKLRTQENPSTSFCQQVLADFIGGLNDFHAGVTFFAIESAYLPYTVQKSSDGRFYFVDIMTFSSEIRVGDELLEVDGAPVQDVLATLYGSNHKGTAAEESAALRTLFSRMASLGHKVPSGRTTLKIRRPFGTTREVRVKWRYVPEGVGDLATIAPSIRAPQLQKSMRSFFPKKDDAFHRSSSLFYSPMVPHFWAELRNHYATSGLKSGYNIGSTDGFLPVIGPVIWESEGLFRAYISSVTDGDGKSHKVGFLRIPTYSWQDMEDFDPSGPPPWEEFAKIIQVFSSNTEALIIDQTNNPGGSVLYLYALLSMLTDRPLELPKHRMILTQDEVVDALDWLTLLENVDTNVESRLALGDNMEGYTVDLQVAEYLKSFGRQVLNCWSKGDIELSTPIPLFGFEKIHPHPRVQYSKPICVLINEQDFSCADFFPVVLKDNDRALIVGTRTAGAGGFVFNVQFPNRTGIKTCSLTGSLAVREHGAFIENIGVEPHIDLPFTANDIRYKGYSEYLDKVKKLVCQLINNDGTIILAEDGSF
B3: CT610: C. trachomatis protein, isoforms DT7, DT9, DT10, DT11, DT12 (protein)
chain: MNFLDQLDLIIQNKHMLEHTFYVKWSKGELTKEQLQAYAKDYYLHIKAFPKYLSAIHSRCDDLEARKLLLDNLMDEENGYPNHIDLWKQFVFALGVTPEELEAHEPSEAAKAKVATFMRWCTGDSLAAGVAALYSYESQIPRIAREKIRGLTEYFGFSNPEDYAYFTEHEEADVRHAREEKALIEMLLKDDADKVLEASQEVTQSLYGFLDSFLDPGTCCSCHQSY

System: C. trachomatis D infected cell cultures
Test: Pulse chase studies of candidates for secreted proteins (2D-PAGE)
Format: cell-based
Details: labelled 22-24 h.p.i.; for spot intensity at 4.5 hours and until the EB stage: chase 4.5 hours
Protocol: To label chlamydial proteins for two hour periods, infected cell cultures were incubated in a medium containing RPMI 1640, […] gentamycin, 40 μg/ml cycloheximide, 100 μCi/ml [35S]-methionine/cysteine (Promix, Amersham Pharmacia Biotech, Uppsala, Sweden) as described previously (Shaw et al., 1999,2000) [18.] [19.]. After labelling the labelling medium was changed to normal growth medium following two washes in normal growth medium and the infected cells were harvested at different points in time after labelling. Similarly, labelled EB proteins were obtained by allowing the Chlamydia to grow until 72 h.p.i. after the two hour labelling periods. The labelled EB were then harvested and purified using two consecutive steps of density gradient ultracentrifugation essentially as described for C. trachomatis in (Schacter and Wyrick, 1994) [22.]and for C. pneumoniae (Knudsen et al. 1999 [17.]). Proteins in the EB preparation and pulse chase preparation were labelled at the same intervals as proteins from the whole cell lysate preparation to facilitate correct 2D-PAGE protein profile comparison.
In order to estimate the time in which the identified candidate proteins could be present inside infected cells, the invention provides a series of pulse chase studies. In the following examples infected cell cultures were [35S]-labelled from 22-24 hours. After the labelling period the medium was changed to normal RPMI growth medium without [35S]-methionine and cells were harvested at different times after labelling.

Molecule | spot intensity 1.5 hours after synthesis (chase 1.5 hours) | spot intensity at 4.5 hours and until the EB stage | spot intensity during the first chase periods
B1 | significantly decreased | virtually absent | 
B2 |  |  | gradually increased
B3 |  | still detectable | 
